According to patent US11324826B2, “Multifunctional treatment and diagnostic compositions and methods” (priority 2018, dated 2022):

Experiment: Photooxidation of DHN under visible light irradiation in aerobic solution, DHN absorption monitored at 301 nm
Method: For a typical experiment, microliter amounts of standard solutions were combined, for illustration not limitation, microliter amounts of a standard solution of Fe(III) solutions (30 μL of 1.0×10^−2 M) and DHN solution (36 μL of 1.0×10^−2 M) added into a cuvette containing 3 mL of solution TMPyP (6.00×10^−6 M). Quartz cuvettes with 1 cm path-length and 3 mL volume were used for all measurements.
For singlet oxygenation of 1,5-dihydroxynaphthalene (DHN) by TMPyP in aqueous solution, a 3 mL solution of DHN (1.2×10^−4 M) and TMPyP (6.0×10^−6 M) was prepared by mixing 36 μL of 1×10^−2 M of DHN standard solution and 18 μL of 1×10^−3 M of TMPyP standard solution with ultrapure water. The solution was prepared at room temperature in an open atmosphere. Photooxygenation of samples was performed in a Rayonet photoreactor and monitored by recording a decrease of UV-vis absorption. For example, photoxygenation of DHN by TMPyP was performed in a Rayonet photoreactor for approximately twenty minutes at 28° C. and the photooxygenation of DHN was monitored by recording a decrease of UV-vis absorption of DHN at 301 nm for 20 minutes in 2 minutes intervals. […]

In the case of `Oc1cccc(-c2c3nc(c(-c4cccc(O)c4)c4ccc([nH]4)c(-c4cccc(O)c4)c4nc(c(-c5cccc(O)c5)c5ccc2[nH]5)C=C4)C=C3)c1` [m−THP, meso-tetra(m-hydroxyphenyl)porphine], the “Times faster DHN photooxidation than without Fe(III)” value (in the presence of 1.4×10^−4 M Fe(III) ions) is reported as 1.25 and the “Times faster DHN photooxidation than without Fe(III)” value (in the presence of 5.0×10^−5 M Fe(III) ions) is reported as 1.17.
